Patent US20250332248

Assays:
[1] = tested on: SARS-CoV-2 Beta variant N protein, SARS-CoV-2 Beta variant; experiment: non-reducing SDS-PAGE and western blot of infected cells
[2] = tested on: SARS-CoV-2 Iota variant N protein, SARS-CoV-2 Iota variant; experiment: non-reducing SDS-PAGE and western blot of infected and transfected cells

Substance | result [1] | result [2]
SARS-CoV-2 Beta variant N protein | binds | 
SARS-CoV-2 Iota variant N protein |  | binds
